Compound potency records, mixed from different reports. Data source: NIAID ChemDB in PubChem.

All rows: tests in culture; species: Varicella zoster virus; read by: cytopathic effect; endpoint: EC50

Neighbouring rows are from separate reports.

smiles | strain | cell line | value
Nc1ncnc2ncn(/C=C3/C(F)C3(CO)CO)c12 | - | HFF | 2.7 µM
Nc1nc2c(ncn2COC(CO)CO)c(=O)[nH]1 | YS | HEL | 2.6 µM
Nc1nc(N)c2ncn(C[C@H](CF)OCP(=O)(O)O)c2n1 | - | HEL | >100 µM
C[C@H](Cn1nc2nc(N)[nH]c(=O)c2n1)OCP(=O)(O)O | YS/R (TK-) | HEL | >20 µg/mL
Nc1ncnc2c1ncn2CC[C@H](O)CCO | YS | HEL | >400 µg/mL
CCCCCCCC/C=C/CCCCCCCC(=O)OCC(CO)OCn1cnc2c(=O)[nH]c(N)nc21 | OKA | HEL | 1.4 µM
CCCCCOc1nc(N)nc2c1ncn2/C=C1/C[C@@H]1CO | - | HFF | >66 µM
Nc1nc2c(nnn2CCOCP(=O)(O)O)c(=O)[nH]1 | YS/R (TK-) | HEL | 0.4 µg/mL
Nc1ncnc2c1ncn2/C=C1/CC1(CO)CO | - | HFF | >380 µM
C=Cc1cn([C@H]2C[C@H](OC(=O)C3=CN(C)C=CC3)[C@@H](CO)O2)c(=O)[nH]c1=O | - | HFF | 8.5 µM
CC(N)c1cn([C@H]2C[C@H](O)[C@@H](CO)O2)c(=O)[nH]c1=O | ELLEN | HFF | >87 µM
Nc1nc2c(ncn2/C=C2\CC2(CO)CO)c(=O)[nH]1 | - | HFF | 0.6 µM
Nc1nc(N)c2ncn(C[C@@H](CO)OCP(=O)(O)O)c2n1 | - | HEL | 2 µM
CC(N=[N+]=[N-])c1cn([C@H]2C[C@H](O)[C@@H](CO)O2)c(=O)[nH]c1=O | ELLEN | HFF | >250 µM
O=c1[nH]c(=O)n([C@H]2C[C@H](O)[C@@H](CO)O2)cc1I | - | HFF | 11 µM
Nc1ncnc2nn(C[C@@H](CO)OCP(=O)(O)O)nc12 | YS/R (TK-) | HEL | >100 µg/mL
CCc1nc([N+](=O)[O-])c(Sc2ccccc2)n1Cc1ccccc1 | OKA (TK+) | HEL | 0.25 µg/mL
O=c1[nH]c(=O)n([C@H]2C[C@H](O)[C@@H](CO)O2)cc1/C=C/I | - | HFF | 0.04 µM
Cc1cn([C@@H]2O[C@H](CO)[C@](O)(C(F)(F)F)[C@H]2O)c(=O)[nH]c1=O | - | VERO | >50 µg/mL
CC(C)CS[C@H]1C[C@@H](n2cnc3c(N)ncnc32)[C@H](O)[C@@H]1O | OKA | HEL | >200 µg/mL
Nc1nc(N)c2ncn(CCOCP(=O)(O)O)c2n1 | Oka PFA-resistant/A | HEL | 14.5 µM
Nc1ncnc2c1ncn2[C@@H]1C=C(CO)[C@@H](O)[C@H]1O | 07/1 YS/R (TK-) | HeLa | 40 µg/mL
Nc1nc2c(ncn2COC(CO)CO)c(=O)[nH]1 | Oka CF1742-resistant | HEL | 6 µM
Nc1ncnc2c1ncn2[C@@H]1O[C@H](CO)[C@](O)(C(F)(F)F)[C@H]1O | - | VERO | >50 µg/mL
Nc1nc2c(ncn2C[C@@H](CO)OCP(=O)(O)O)c(=O)[nH]1 | - | HEL | 0.007 µM
CO[C@H](CO)[C@@H](O)CCn1ccc(N)nc1=O | YS | HEL | >400 µg/mL
Nc1ncc2ncn(C[C@H](CF)OCP(=O)(O)O)c2n1 | - | HEL | >100 µM
O=C(O)P(=O)(O)O | Clinical isolate VZV-12 | HEL | 93.6 µM
Cc1cn(CC[C@H](O)CCO)c(=O)[nH]c1=O | YS/R (TK-) | HEL | >400 µg/mL
Nc1ncnc2nn(C[C@@H](CF)OCP(=O)(O)O)nc12 | 07/1 (TK-) | HEL | >10 µg/mL
Nc1ccn(C[C@@H](CO)OCP(=O)(O)O)c(=O)n1 | YS | HEL | 0.58 µM
CCCOc1nc(N)nc2c1ncn2/C=C1/C[C@@H]1CO | - | HFF | 0.5 µM
Nc1nc2c(ncn2CCC(CO)CO)c(=O)[nH]1 | OKA (WILD TYPE) | HEL | 2.2 µM
C[C@@H](Cn1cnc2c(=O)[nH]c(N)nc21)OCP(=O)(O)O | - | HEL | 1.3 µM
CCCSc1nc(N)nc2c1ncn2/C=C1/C[C@@H]1CO | - | HFF | >69 µM
Nc1ncnc2c1ncn2C[C@@H](CO)OCP(=O)(O)O | Oka BVDU-resistant | HEL | 0.08 µM
Nc1ncnc2c1ncn2C[C@H](CO)OCP(=O)(O)O | - | HEL | 2 µM
COc1ncnc2c1ncn2[C@@H]1O[C@H](CO)[C@@H](O)[C@@H]1O | G-31 | MRC-5 | 1.3 µM
C=CCNc1nc(N)nc2c1ncn2/C=C1/C[C@@H]1CO | - | HFF | >367 µM
CO[C@H](CO)[C@@H](O)CCn1cnc2c(=O)[nH]c(N)nc21 | OKA | HEL | >400 µg/mL

ECn: concentration that inhibits the pathogen or its effect by n%. Blank or dashed fields: not listed here.